Measurements reported in ChEMBL document CHEMBL1131418, “Antiviral oligo- and polyribonucleotides containing selected triazolo[2,3-a]purines” (J Med Chem, 1998).

System: CEM-SS
Experiment: Cytotoxic dose for anti-HIV activity against HIV-IIIB in CEM-SS cells
Assay type: functional
Details: Homo sapiens

| SMILES | CD50 |
| --- | --- |
| CO[C@@H]1[C@H](OP(C)(=O)O)[C@@H](COP(C)(=O)O)O[C@H]1n1cnc2c(=S)n3ncn(C)c3nc21 | > 7 µM |
| Cn1cnn2c(=O)c3ncn([C@@H]4O[C@H](COP(C)(=O)O)[C@@H](OP(C)(=O)O)[C@H]4O)c3nc12 | > 2.5 µM |
| Cn1cnc2c(ncn2[C@@H]2O[C@H](COP(C)(=O)O)[C@@H](OP(C)(=O)O)[C@H]2O)c1=S | > 1 µM |
